# According to publication PMC5826148, “Whole-Cell Screen of Fragment Library Identifies Gut Microbiota Metabolite Indole Propionic Acid as Antitubercular” (Antimicrobial Agents and Chemotherapy, 2018):
# Tested on: HepG2 cells
# Test: Cytotoxicity assay, HepG2 cells (CellTiter 96 AQueous One)
# Conditions: relative to M. tuberculosis MIC50
row,SMILES,HepG2 cells SI (CC50/MIC50)
1,O=C(O)CCc1c[nH]c2ccccc12 [Fragment F1],>14.7
2,"O=c1cc(C(F)(F)F)c2ccc(O)cc2o1 [Fragment F2, 7-Hydroxy-4-(trifluoromethyl)-2H-chromen-2-one]",4.6
3,"Cc1nc(C(N)=S)c[nH]1 [Fragment F3, 2-Methyl-1H-imidazole-4-carbothioamide]",>9.5
4,"COC(=O)c1cc2ccccc2cn1 [Fragment F4, Methyl isoquinoline-3-carboxylate]",>5.71
5,"Nc1ccc2oc3c(c2c1)CCCC3 [Fragment F5, 6,7,8,9-Tetrahydrodibenzo [b,d]furan-2-amine]",>4.1
6,"c1ccc2c(c1)[nH]c1cnccc12 [Fragment F6, 9H-Pyrido[3,4-b]indole]",4.9
7,"Cc1oc(-c2ccc(Cl)cc2)cc1C(=O)N(C)C [Fragment F8, 5-(4-Chlorophenyl)-N,N,2-trimethyl-3-furamide]",4.4
8,"COC(=O)c1sc2ccccc2c1O [Fragment F9, Methyl 3-hydroxy-1-benzo thiophene-2-carboxylate]",3.8
9,"O=C(O)c1ccc(-c2ccccc2)s1 [Fragment F10, 5-Phenylthiophene-2-carboxylic acid]",3.3
10,"CSc1cc(-c2ccc(F)cc2)n[nH]1 [Fragment F11, 3-(4-Fluorophenyl)-5-(methylsulfanyl)-1H-pyrazole]",4.8
11,"Clc1ccc2nc(N3CCCNCC3)sc2c1 [Fragment F12, 6-Chloro-2-(1,4-diazepan-1-yl)-1,3-benzothiazole]",0.9
12,"NC(=S)COc1cccc(Cl)c1 [Fragment F13, 2-(3-Chlorophenoxy) ethanethioamide]",2.2
13,"Cc1n[nH]c(C)c1Oc1ccc(Cl)cc1 [Fragment F15, 4-(4-Chlorophenoxy)-3,5-dimethyl-1H-pyrazole]",2.9
14,"Cc1cc(C(=O)O)c(C)n1Cc1cccs1 [Fragment F16, 2,5-Dimethyl-1-(2-thienylmethyl)-1H-pyrrole-3-carboxylic acid]",3.1
15,"NCc1cccc(N2CCCCC2)n1 [Fragment F17, [6-(Piperidin-1-yl)pyridin-2-yl]methanamine]",1.8
16,"Cc1ccc2c(c1)N(CCO)C(C)(C)CC2C.O (centres unmarked) [Fragment F18, 2-(2,2,4,7-Tetramethyl-1,2,3,4-tetrahydroquinolin-1-yl)ethan-1-ol hydrate]",0.7
17,"CCOC(=O)c1c(N)sc(C)c1-c1ccccc1 [Fragment F19, Ethyl 2-amino-5-methyl-4-phenylthiophene-3-carboxylate]",0.9
18,"O=C(O)c1ccc(-c2cccs2)s1 [Fragment F20, [2,2′-Bithiophene]-5-carboxylic acid]",2.8
19,"Cc1cc2cc(N)ccc2[nH]1 [Fragment F21, 2-Methyl-1H-indol-5-amine]",1.4
20,"N#Cc1ccc(O)cc1F [Fragment F22, 2-Fluoro-4-hydroxybenzonitrile]",2.9
21,"CNCc1ccccc1Oc1ccccc1 [Fragment F23, Methyl[(2-phenoxyphenyl)methyl]amine]",2.6
22,"Cc1ccc(-c2cc(C(=O)O)c(C)o2)cc1 [Fragment F24, 2-Methyl-5-(4-methylphenyl)-3-furoic acid]",3.1
23,"O=C(O)c1csc2ccc(Cl)cc12 [Fragment F25, 5-Chloro-1-benzothiophene-3-carboxylic acid]",2.4
24,"O=C(O)c1ccc(-c2ccsc2)cc1 [Fragment F26, 4-(3-Thienyl)benzoic acid]",3.0
25,"Oc1noc2cc(Cl)ccc12 [Fragment F27, 6-Chlorobenzo[d]isoxazol-3-ol]",>2.5
26,"OCc1csc(-c2ccc(C(F)(F)F)cc2)n1 [Fragment F28, {2-[4-(Trifluoromethyl)phenyl]-1,3-thiazol-4-yl}methanol]",>2.3
27,"Oc1ccc(Oc2ccccc2)cc1 [Fragment F29, 4-Phenoxyphenol]",0.5

# Tested on: THP-1 cells
# Test: Cytotoxicity assay, THP-1 cells (CellTiter 96 AQueous One)
# Conditions: relative to M. tuberculosis MIC50
row,SMILES,THP-1 cells SI (CC50/MIC50)
1,O=C(O)CCc1c[nH]c2ccccc12 [Fragment F1],>14.7
2,"O=c1cc(C(F)(F)F)c2ccc(O)cc2o1 [Fragment F2, 7-Hydroxy-4-(trifluoromethyl)-2H-chromen-2-one]",4.1
3,"Cc1nc(C(N)=S)c[nH]1 [Fragment F3, 2-Methyl-1H-imidazole-4-carbothioamide]",8.1
4,"COC(=O)c1cc2ccccc2cn1 [Fragment F4, Methyl isoquinoline-3-carboxylate]",>5.71
5,"Nc1ccc2oc3c(c2c1)CCCC3 [Fragment F5, 6,7,8,9-Tetrahydrodibenzo [b,d]furan-2-amine]",>4.1
6,"c1ccc2c(c1)[nH]c1cnccc12 [Fragment F6, 9H-Pyrido[3,4-b]indole]",2.4
7,"Cc1oc(-c2ccc(Cl)cc2)cc1C(=O)N(C)C [Fragment F8, 5-(4-Chlorophenyl)-N,N,2-trimethyl-3-furamide]",1.7
8,"COC(=O)c1sc2ccccc2c1O [Fragment F9, Methyl 3-hydroxy-1-benzo thiophene-2-carboxylate]",4.6
9,"O=C(O)c1ccc(-c2ccccc2)s1 [Fragment F10, 5-Phenylthiophene-2-carboxylic acid]",2.9
10,"CSc1cc(-c2ccc(F)cc2)n[nH]1 [Fragment F11, 3-(4-Fluorophenyl)-5-(methylsulfanyl)-1H-pyrazole]",3.9
11,"Clc1ccc2nc(N3CCCNCC3)sc2c1 [Fragment F12, 6-Chloro-2-(1,4-diazepan-1-yl)-1,3-benzothiazole]",0.6
12,"NC(=S)COc1cccc(Cl)c1 [Fragment F13, 2-(3-Chlorophenoxy) ethanethioamide]",3.1
13,"Cc1n[nH]c(C)c1Oc1ccc(Cl)cc1 [Fragment F15, 4-(4-Chlorophenoxy)-3,5-dimethyl-1H-pyrazole]",1.5
14,"Cc1cc(C(=O)O)c(C)n1Cc1cccs1 [Fragment F16, 2,5-Dimethyl-1-(2-thienylmethyl)-1H-pyrrole-3-carboxylic acid]",2.9
15,"NCc1cccc(N2CCCCC2)n1 [Fragment F17, [6-(Piperidin-1-yl)pyridin-2-yl]methanamine]",2.0
16,"Cc1ccc2c(c1)N(CCO)C(C)(C)CC2C.O (centres unmarked) [Fragment F18, 2-(2,2,4,7-Tetramethyl-1,2,3,4-tetrahydroquinolin-1-yl)ethan-1-ol hydrate]",0.9
17,"CCOC(=O)c1c(N)sc(C)c1-c1ccccc1 [Fragment F19, Ethyl 2-amino-5-methyl-4-phenylthiophene-3-carboxylate]",0.9
18,"O=C(O)c1ccc(-c2cccs2)s1 [Fragment F20, [2,2′-Bithiophene]-5-carboxylic acid]",3.6
19,"Cc1cc2cc(N)ccc2[nH]1 [Fragment F21, 2-Methyl-1H-indol-5-amine]",1.5
20,"N#Cc1ccc(O)cc1F [Fragment F22, 2-Fluoro-4-hydroxybenzonitrile]",2.3
21,"CNCc1ccccc1Oc1ccccc1 [Fragment F23, Methyl[(2-phenoxyphenyl)methyl]amine]",3.2
22,"Cc1ccc(-c2cc(C(=O)O)c(C)o2)cc1 [Fragment F24, 2-Methyl-5-(4-methylphenyl)-3-furoic acid]",2.8
23,"O=C(O)c1csc2ccc(Cl)cc12 [Fragment F25, 5-Chloro-1-benzothiophene-3-carboxylic acid]",2.7
24,"O=C(O)c1ccc(-c2ccsc2)cc1 [Fragment F26, 4-(3-Thienyl)benzoic acid]",3.1
25,"Oc1noc2cc(Cl)ccc12 [Fragment F27, 6-Chlorobenzo[d]isoxazol-3-ol]",2.0
26,"OCc1csc(-c2ccc(C(F)(F)F)cc2)n1 [Fragment F28, {2-[4-(Trifluoromethyl)phenyl]-1,3-thiazol-4-yl}methanol]",2.2
27,"Oc1ccc(Oc2ccccc2)cc1 [Fragment F29, 4-Phenoxyphenol]",0.3

# Tested on: human red blood cells (RBCs)
# Test: Red blood cell lysis assay
# Conditions: relative to M. tuberculosis MIC50
row,SMILES,RBCs SI (HC50/MIC50)
1,O=C(O)CCc1c[nH]c2ccccc12 [Fragment F1],>14.7
2,"O=c1cc(C(F)(F)F)c2ccc(O)cc2o1 [Fragment F2, 7-Hydroxy-4-(trifluoromethyl)-2H-chromen-2-one]",>4.7
3,"Cc1nc(C(N)=S)c[nH]1 [Fragment F3, 2-Methyl-1H-imidazole-4-carbothioamide]",>9.5
4,"COC(=O)c1cc2ccccc2cn1 [Fragment F4, Methyl isoquinoline-3-carboxylate]",>5.71
5,"Nc1ccc2oc3c(c2c1)CCCC3 [Fragment F5, 6,7,8,9-Tetrahydrodibenzo [b,d]furan-2-amine]",>4.1
6,"Cc1oc(-c2ccc(Cl)cc2)cc1C(=O)N(C)C [Fragment F8, 5-(4-Chlorophenyl)-N,N,2-trimethyl-3-furamide]",3.2
7,"COC(=O)c1sc2ccccc2c1O [Fragment F9, Methyl 3-hydroxy-1-benzo thiophene-2-carboxylate]",>7.0
8,"O=C(O)c1ccc(-c2ccccc2)s1 [Fragment F10, 5-Phenylthiophene-2-carboxylic acid]",>5.4
9,"CSc1cc(-c2ccc(F)cc2)n[nH]1 [Fragment F11, 3-(4-Fluorophenyl)-5-(methylsulfanyl)-1H-pyrazole]",>5.1
10,"Clc1ccc2nc(N3CCCNCC3)sc2c1 [Fragment F12, 6-Chloro-2-(1,4-diazepan-1-yl)-1,3-benzothiazole]",>5.1
11,"NC(=S)COc1cccc(Cl)c1 [Fragment F13, 2-(3-Chlorophenoxy) ethanethioamide]",4.3
12,"Cc1n[nH]c(C)c1Oc1ccc(Cl)cc1 [Fragment F15, 4-(4-Chlorophenoxy)-3,5-dimethyl-1H-pyrazole]",1.9
13,"Cc1cc(C(=O)O)c(C)n1Cc1cccs1 [Fragment F16, 2,5-Dimethyl-1-(2-thienylmethyl)-1H-pyrrole-3-carboxylic acid]",>4.0
14,"NCc1cccc(N2CCCCC2)n1 [Fragment F17, [6-(Piperidin-1-yl)pyridin-2-yl]methanamine]",>4.0
15,"Cc1ccc2c(c1)N(CCO)C(C)(C)CC2C.O (centres unmarked) [Fragment F18, 2-(2,2,4,7-Tetramethyl-1,2,3,4-tetrahydroquinolin-1-yl)ethan-1-ol hydrate]",1.8
16,"CCOC(=O)c1c(N)sc(C)c1-c1ccccc1 [Fragment F19, Ethyl 2-amino-5-methyl-4-phenylthiophene-3-carboxylate]",1.7
17,"O=C(O)c1ccc(-c2cccs2)s1 [Fragment F20, [2,2′-Bithiophene]-5-carboxylic acid]",>3.7
18,"Cc1cc2cc(N)ccc2[nH]1 [Fragment F21, 2-Methyl-1H-indol-5-amine]",>3.6
19,"N#Cc1ccc(O)cc1F [Fragment F22, 2-Fluoro-4-hydroxybenzonitrile]",>3.3
20,"CNCc1ccccc1Oc1ccccc1 [Fragment F23, Methyl[(2-phenoxyphenyl)methyl]amine]",>3.3
21,"Cc1ccc(-c2cc(C(=O)O)c(C)o2)cc1 [Fragment F24, 2-Methyl-5-(4-methylphenyl)-3-furoic acid]",>3.2
22,"O=C(O)c1csc2ccc(Cl)cc12 [Fragment F25, 5-Chloro-1-benzothiophene-3-carboxylic acid]",3.0
23,"O=C(O)c1ccc(-c2ccsc2)cc1 [Fragment F26, 4-(3-Thienyl)benzoic acid]",>3.1
24,"Oc1noc2cc(Cl)ccc12 [Fragment F27, 6-Chlorobenzo[d]isoxazol-3-ol]",>2.5
25,"OCc1csc(-c2ccc(C(F)(F)F)cc2)n1 [Fragment F28, {2-[4-(Trifluoromethyl)phenyl]-1,3-thiazol-4-yl}methanol]",1.8
26,"Oc1ccc(Oc2ccccc2)cc1 [Fragment F29, 4-Phenoxyphenol]",2.1
